System: CHIKV nsP1 GTP binding site
Test: FP competition assay, displacement of GTP-Bodipy by GTP and RNA cap analogs (apparent Ki / EC50)
Settings: Ki relative to GTP

Row | Compound | Fold Change
1 | Nc1ncnc2c1ncn2[C@@H]1O[C@H](COP(=O)(O)OP(=O)(O)OP(=O)(O)O)[C@@H](O)[C@H]1O [ATP] | 6.12
2 | Nc1nc2c(ncn2[C@@H]2O[C@H](COP(=O)(O)OP(=O)(O)OP(=O)(O)OC[C@H]3O[C@@H](n4cnc5c(N)ncnc54)[C@H](O)[C@@H]3O)[C@@H](O)[C@H]2O)c(=O)[nH]1 [GpppA] | 3.46
3 | O=c1[nH]cnc2c1ncn2[C@@H]1O[C@H](COP(=O)(O)OP(=O)(O)OP(=O)(O)O)[C@@H](O)[C@H]1O [ITP] | 3.50
4 | C[n+]1cn([C@@H]2O[C@H](COP(=O)([O-])OP(=O)(O)OP(=O)(O)OC[C@H]3O[C@@H](n4cnc5c(N)ncnc54)[C@H](O)[C@@H]3O)[C@@H](O)[C@H]2O)c2nc(N)[nH]c(=O)c21 [me^7-GpppA] | 12.82
5 | Nc1nc2c(ncn2[C@@H]2O[C@H](COP(=O)(O)OP(=O)(O)O)[C@@H](O)[C@H]2O)c(=O)[nH]1 [GDP] | 8.96
6 | Cn1c[n+]([C@@H]2O[C@H](COP(=O)(O)O)[C@@H](O)[C@H]2O)c2nc(N)[nH]c(=O)c21 [me^7-GMP] | 40.11
7 | Nc1nc2c(ncn2[C@H]2C[C@H](O)[C@@H](COP(=O)(O)OP(=O)(O)OP(=O)(O)O)O2)c(=O)[nH]1 [dGTP] | 7.71
8 | Nc1nc2c(ncn2[C@@H]2O[C@H](COP(=O)(O)OP(=O)(O)OP(=O)(O)O)[C@@H](O)[C@H]2O)c(=O)[nH]1 [GTP] | 1
9 | Nc1nc2c(ncn2[C@H]2CC[C@@H](COP(=O)(O)OP(=O)(O)OP(=O)(O)O)O2)c(=O)[nH]1 [ddGTP] | 0.78
10 | Nc1ccn([C@@H]2O[C@H](COP(=O)(O)OP(=O)(O)OP(=O)(O)O)[C@@H](O)[C@H]2O)c(=O)n1 [CTP] | 12.71
11 | O=c1[nH]c(=O)c2ncn([C@@H]3O[C@H](COP(=O)(O)OP(=O)(O)OP(=O)(O)O)[C@@H](O)[C@H]3O)c2[nH]1 [XTP] | 0.74
12 | O=c1ccn([C@@H]2O[C@H](COP(=O)(O)OP(=O)(O)OP(=O)(O)O)[C@@H](O)[C@H]2O)c(=O)[nH]1 [UTP] | 8.17
13 | Nc1nc2c(ncn2[C@@H]2O[C@H](COP(=O)(O)O)[C@@H](O)[C@H]2O)c(=O)[nH]1 [GMP] | 243.59
14 | Cn1c[n+]([C@@H]2O[C@H](COP(=O)([O-])OP(=O)(O)OP(=O)(O)O)[C@@H](O)[C@H]2O)c2nc(N)[nH]c(=O)c21 [me^7-GTP] | 2.84
